Anti-infective test results gathered from many reports (values: NIAID ChemDB through PubChem).

Common to all: growth or infection tests

ECn: concentration that inhibits the pathogen or its effect by n%.

| smiles | read by | cells | setting | tested at | strain or isolate | endpoint | agent | value |
|---|---|---|---|---|---|---|---|---|
| Nc1ncc2c(ncn2COC(CO)CO)n1 | syncytia | SupT1 | - | - | - | EC50 | Human herpesvirus 7 | 0.0001 µg/mL |
| Nc1nc(N)c2ncn([C@@H]3S[C@H](CO)[C@H](O)[C@@H]3F)c2n1 | - | - | - | - | - | EC50 | Human cytomegalovirus | 0.66 µg/mL |
| Nc1ccn(C[C@@H](CO)OCP(=O)(O)O)c(=O)n1 | plaque count | HEL | - | - | DAVIS | EC50 | Human cytomegalovirus | 0.1 µg/mL |
| Nc1nc2c(ncn2CCC(CO)CO)c(=O)[nH]1 | antigen | HUMAN CORD BLOOD CELL | 6 d | 100 µM | 729 | inhibition | Human herpesvirus 6 | 29% |
| C[C@H](Cn1cnc2c(N)ncnc21)OCP(=O)(O)O | syncytia | SupT1 | - | - | - | EC50 | Human herpesvirus 7 | >250 µg/mL |
| Nc1nc2c(ncn2C[C@@H]2COP(=O)(O)CO2)c(=O)[nH]1 | antigen / flow cytometry | HSB-2 | - | - | GS | EC50 | Human herpesvirus 6 | >25 µM |
| C=C1CCC2CC(C(=C)C)C2(C)CCC(C(=C)C(=O)O)CC1CC=C(C)C | - | HeLa | - | - | HRV3 | EC50 | Human rhinovirus | 0.19 µg/mL |
| Nc1nccc2c1ncn2[C@@H]1C[C@H](CO)[C@@H](O)[C@H]1O | cytopathic effect | WI-38 | - | - | 229E 229E | EC50 | Human coronavirus | 150 µg/mL |
| Nc1nc2c(ncn2CCC(CO)CO)c(=O)[nH]1 | syncytia | SupT1 | - | - | - | EC50 | Human herpesvirus 7 | >170 µg/mL |
| O=c1[nH]c(=O)n([C@H]2C[C@H](O)[C@@H](CO)O2)cc1I | cytopathic effect | HSB-2 | - | - | U1102 (TYPE 6A) | EC50 | Human herpesvirus 6 | >288 µM |
| c1ccc(-c2ccccn2)nc1 | plaque count | HEL | - | - | AD169 | EC50 | Human cytomegalovirus | 10.31 µg/mL |
| C=C[C@H]1C[C@@H](n2cnc3c(N)ncnc32)[C@H](O)[C@@H]1O | plaque count | HEL | - | - | AD-169 (20 PFU) | EC50 | Human cytomegalovirus | 21.2 µg/mL |
| Nc1nc2c(ncn2C[C@]2(CO)C[C@H]2CO)c(=O)[nH]1 | cytopathic effect | Human T-lymphoblasts | - | - | - | EC50 | Human herpesvirus 6 | 3.4 µM |
| O=C(O)P(=O)(O)O | syncytia | CD4+ T lymphocytes | - | - | - | EC50 | Human herpesvirus 7 | 7.6 µg/mL |
| CC(C)(C)C(=O)OCOP(=O)(COCCn1cnc2c(N)ncnc21)OCOC(=O)C(C)(C)C | cytopathic effect | HSB-2 | - | - | U1102 (TYPE 6A) | EC50 | Human herpesvirus 6 | 0.65 µM |
| NC(=O)c1ncn([C@@H]2O[C@H](CO)[C@@H](O)[C@H]2O)n1 | plaque count | HEL | - | - | DAVIS (20 PFU) | EC50 | Human cytomegalovirus | >100 µg/mL |
| Nc1nc2c(ncn2C[C@H]2COP(=O)(O)CO2)c(=O)[nH]1 | cytopathic effect | HSB-2 | - | - | GS | EC50 | Human herpesvirus 6 | 6.9 µM |
| O=C(NCCc1c[nH]c2ccccc12)C1=Cc2ccncc2CC1 | plaque count | HFF | - | - | 4760RECPOLA1-1-1 | EC50 | Human cytomegalovirus | 0.3 µM |
| Nc1nc(N)c2ncn(C[C@@H](CO)OCP(=O)(O)O)c2n1 | antigen / flow cytometry | HSB-2 | - | - | GS | EC50 | Human herpesvirus 6 | 27 µM |
| CCC#Cc1ccc2c(c1)c(=O)c(C(=O)NCc1ccc(Cl)cc1)nn2C | - | - | - | 20 µM | - | inhibition | Human cytomegalovirus | 90% |
| O=c1[nH]c(=O)n([C@@H]2O[C@H](CO)[C@@H](O)[C@@H]2O)cc1/C=C/Br | syncytia | CD4+ T lymphocytes | - | - | - | EC50 | Human herpesvirus 7 | >250 µg/mL |
| Nc1ncnc2c1ncn2C[C@H]1COP(=O)(O)CO1 | cytopathic effect | HSB-2 | - | - | U1102 (TYPE 6A) | EC50 | Human herpesvirus 6 | 109 µM |
| Nc1nc2c(ncn2CCC(CO)CO)c(=O)[nH]1 | syncytia | CD4+ T lymphocytes | - | - | - | EC50 | Human herpesvirus 7 | >250 µM |
| Nc1nc2c(ncn2COC(CO)CO)c(=O)[nH]1 | plaque count | HEL | - | - | AD169 | EC50 | Human cytomegalovirus | 1.1 µg/mL |
| CC(C)Nc1nc2cc(Cl)c(Cl)cc2n1[C@H]1O[C@@H](CO)[C@H](O)[C@@H]1O | plaque count | MRC-5 | - | 1.03 µM | P | inhibition | Human cytomegalovirus | 90% |
| Nc1ncnc2c1ncn2CCOCP(=O)(O)O | cytopathic effect | HSB-2 | - | - | U1102 (TYPE 6A) | EC50 | Human herpesvirus 6 | >277 µM |
| Nc1ncnc2c1ncn2C[C@H](O)CO | cytopathic effect | HEL | - | - | DAVIS (100 PFU) | EC50 | Human cytomegalovirus | >100 µg/mL |
| Nc1nc2c(ncn2C[C@H](CO)OCP(=O)(O)O)c(=O)[nH]1 | cytopathic effect | HSB-2 | - | - | GS | EC50 | Human herpesvirus 6 | 5.6 µM |
| O=C(O)CP(=O)(O)O | cytopathic effect | HSB-2 | - | - | U1102 (TYPE 6A) | EC50 | Human herpesvirus 6 | >51 µM |

Repeating the final 2 entries:

smiles,read by,cells,setting,tested at,strain or isolate,endpoint,agent,value
Nc1nc2c(ncn2C[C@H](CO)OCP(=O)(O)O)c(=O)[nH]1,cytopathic effect,HSB-2,-,-,GS,EC50,Human herpesvirus 6,5.6 µM
O=C(O)CP(=O)(O)O,cytopathic effect,HSB-2,-,-,U1102 (TYPE 6A),EC50,Human herpesvirus 6,>51 µM

Percent inhibition refers to the dose given; in toxicity tests it is the harm to the cells. Blank or dashed fields: not listed here. Neighbouring rows are from separate reports.